This data set can be described thus: Anti-FLAG ELISA of protein secretion in Aspergillus niger. The conditions noted are these: for ELISA 10 ml shake flask: 10 ml minimal medium; for ELISA 10 ml shake flask / ELISA 1 litre shake flask: three days; for ELISA 1 litre shake flask: one litre minimal media; for ELISA 1st MTP: primary transformants, 96 deep well, 72 hrs, culture supernatant; for ELISA 2nd MTP: retest after single spore purification. (In an ELISA, binding on a coated surface is turned into a signal by an enzyme label.)

B1: SEQID-00354: nutritive polypeptide (protein)
chain: MSLSNKLTLDKLDVKGKRVVMRVDFNVPMKNNQITNNQRIKAAVPSIKYCLDSGAKSVVLMSHLGRPDGVPMPDKYSLQPVAVELKSLLGKDVLFLKDCVGPEVEKACADPAAGSVILLENLRFHVEEEGKGKDASGNKVKAEPTKIEAFRASLSKLGDVYVNDAFGTAHRAHSSMVGVNLPKKAGGFLMKKELNYFAKALESPERPFLAILGGAKVADKIQLISNMLDKVNEMIIGGGMAFTFLKVLNNMEIGTSLFDEEGSKIVKDLMSKADKNGVKITLPVDFVTADKFDENAKTGQATVASGIPVGWMGLDCGPESSKKYAEAVARAKQIVWNGPVGVFEWEAFARGTKALMDEVVKATSRGCITIIGGGDTATCCAKWNTEDKVSHVSTGGGASLELLEGKVLPGVDALSSV
modifications: Ovis aries
notes: nutritive polypeptide
Take B1: the “ELISA 10 ml shake flask” value lay within 0.9 to 7.8 mg/L, the “ELISA 1 litre shake flask” value fell in the range of 0 to 1.2 mg/L, the “ELISA 1st MTP” value is 9.1 to 120.4 mg/L and the “ELISA 2nd MTP” value fell in the range of 0 to 47.2 mg/L.

B2: SEQID-00298 (protein, listed as Bos taurus)
chain: MGLSDGEWQLVLNAWGKVEADVAGHGQEVLIRLFTGHPETLEKFDKFKHLKTEAEMKASEDLKKHGNTVLTALGGILKKKGHHEAEVKHLAESHANKHKIPVKYLEFISDAIIHVLHAKHPSDFGADAQAAMSKALELFRNDMAAQYKVLGFHG
Turning to B2, the “ELISA 10 ml shake flask” value lay within 1.3 to 79.4 mg/L, the “ELISA 1 litre shake flask” value fell in the range of 93.9 to 224.3 mg/L, the “ELISA 1st MTP” value fell in the range of 66.0 to 215.4 mg/L and the “ELISA 2nd MTP” value lay within 5.2 to 119.5 mg/L.

The values are drawn from patent publication US20160228506A1, “Compositions and Formulations for Prevention and Reduction of Tumorigenesis, Cancer Cell Proliferation and Invasion, and Methods of Production and Use Thereof in Cancer Treatment” (PRONUTRIA, INC., priority 2013, published 2016).
